IC50 data for 1 compound are collected here from publication PMC3735122 (mBio, 2013).

Experiment [1] concerns the target RG-A/CA/04/09 neuraminidase (Influenza A virus (A/California/04/2009(H1N1)), UniProt C3W5S3). The following applies: read-out: IC50 value [mean (95% CI)].
For experiment [2], the target named is RG-A/CA/04/09 NA^H274Y neuraminidase (Influenza A virus (A/California/04/2009(H1N1)), UniProt C3W5S3, H275Y). Briefly: biochemical.

On to `CC(=O)N[C@H]1[C@H]([C@H](O)[C@H](O)CO)OC(C(=O)O)=C[C@@H]1N=C(N)N` [zanamivir], for which the IC50 in experiment [1] worked out at 0.52 nM; in experiment [2], 0.88 nM.

Broadly, the IC50 is the concentration needed to halve the response being measured.
